The values below come from PMC4479931, “The Disulfide Bond Cys255-Cys279 in the Immunoglobulin-Like Domain of Anthrax Toxin Receptor 2 Is Required for Membrane Insertion of Anthrax Protective Antigen Pore” (2015).

This experiment concerns the target protective antigen PA63 heptamer, (PA63)7 (heptameric prepore) (Bacillus anthracis).

As usually defined, the stoichiometry N is a count of units in the complex or per binding partner. “protective antigen PA63 heptamer, (PA63)7 (heptameric prepore)” registered a stoichiometry N of 7.
